Molecular target: T1, vIRF4^153-256 (Kaposi's-sarcoma-associated-herpesvirus …, UniProt Q2HR73 153-256)
T1 sequence: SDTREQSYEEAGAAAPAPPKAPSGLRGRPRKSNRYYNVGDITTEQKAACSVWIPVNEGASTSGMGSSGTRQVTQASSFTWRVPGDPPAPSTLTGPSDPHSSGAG
Assay: ITC, titration against HAUSP TRAF domain, 20 °C

B1: HAUSP TRAF domain (HAUSP^62-205) (enzyme)
chain: DTSWRSEATFQFTVERFSRLSESVLSPPCFVRNLPWKIMVMPRFYPDRPHQKSVGFFLQCNAESDSTSWSCHAQAVLKIINYRDDEKSFSRRISHLFFHKENDWGFSNFMAWSEVTDPEKGFIDDDKVTFEVFVQADAPHGVAW
B1 showed a Ka of 1.32e+07 M⁻¹ and a Kd of 76 nM.

From patent US20130330358A1 (UNIVERSITY OF SOUTHERN CALIFORNIA, published 2013)
